Measured values from several laboratories, pooled; numbers as filed in NIAID ChemDB.

Shared fields: tests in culture; species: HIV-1

Conditions beyond the fields shown may differ between rows. ECn: concentration that inhibits the pathogen or its effect by n%.

CCN(c1nc(F)ccc1NC(C)(C)C)C1CCN(C(=O)c2cc3cc(NC(=O)N4CCN(C)CC4)ccc3[nH]2)CC1 ; strain or isolate: IIIB ; cells: MT-2 ; mutations: 8374-P62 GS-8374-resistant ; read-out: EC50 ; read by: ATP ; result: 0.019 µM
Nc1ccn([C@H]2CC[C@@H](CO)O2)c(=O)n1 ; strain or isolate: 263 ; cells: MT-4 ; read-out: EC50 ; read by: p24 ; result: 0.35 µM
Nc1nc(NC2CCCC2)c2ncn(CCOCP(=O)(O)O)c2n1 ; strain or isolate: IIIB ; cells: MT-4 ; read-out: EC50 ; read by: cytopathic effect / MTT ; result: >0.8 µg/mL
CCOP(=O)(COc1ccc(C[C@H](NC(=O)O[C@H]2CO[C@H]3OCC[C@H]32)[C@H](O)CN(CC(C)C)S(=O)(=O)c2ccc(OC)cc2)cc1)OCC ; strain or isolate: IIIB ; cells: MT-2 ; mutations: D437N L441P ; read-out: EC50 ; read by: p24 / ELISA ; result: 0.008 µM
Cc1ccnc2c1NC(=O)c1cccnc1N2C1CC1 ; strain or isolate: IIIB ; cells: MT-2 ; mutations: Y181C ; read-out: EC50 ; read by: MTT ; result: >15.9 µM
CN(C)C1(c2nc(C(=O)NCc3ccc(F)cc3)c(O)c(=O)[nH]2)CCOCC1 ; strain or isolate: IIIB ; cells: MT-4 ; conditions: 50% human serum ; read-out: EC50 ; read by: p24 ; result: <0.19 µM
CC(=O)O[C@@]12C[C@@H](C)[C@@]3(O)[C@@H](C=C(CO)C[C@]4(O)C(=O)C(C)=C[C@@H]34)[C@@H]1C2(C)C ; strain or isolate: A17 ; cells: C8166 ; read-out: EC50 ; read by: p24 / ELISA ; result: 3.34 µM
CO[P@](=O)(c1cc(C)cc(/C=C/C#N)c1)c1c(C(N)=O)[nH]c2ccc(Cl)c(F)c12 ; strain or isolate: BH10 ; cells: MT-4 ; mutations: K103N/Y181C ; read-out: EC50 ; result: 0.0035 µM
CCCCCCCCCCCCSCC(COP(=O)([O-])OCC[N+](C)(C)C)OCCCCCCCCC(=O)OCC(=O)OC[C@H]1O[C@@H](n2cc(C)c(=O)[nH]c2=O)C[C@@H]1N=[N+]=[N-] ; strain or isolate: LAI-XXBRU WT ; cells: CEM + CEM-SS ; read-out: EC50 ; read by: plaque count ; result: 0.05 µM
C[C@H](C[n+]1c[nH]c2c(NCCCC3CCCCC3)nc(N)nc21)OCP(=O)(O)O ; strain or isolate: IIIB ; cells: CEM ; read-out: EC50 ; read by: cytopathic effect / MTT ; result: 2 µg/mL
CC[C@@H](C)[C@H](C(=O)O)N1C[C@H](CN2CCC(c3cc(Cc4ccc5ccccc5c4)nn3CC)CC2)[C@@H](c2cccc(F)c2)C1 ; strain or isolate: BaL ; cells: HeLa ; conditions: 50% human serum ; read-out: EC50 ; read by: β-galactosidase ; result: <0.3 µM
CCc1c(C(=O)c2cc(C)cc(C)c2)n(CC2CC=CC2)c(=O)[nH]c1=O ; strain or isolate: WEJO ; cells: PBMC ; conditions: clinical isolate ; read-out: EC50 ; read by: cytopathic effect / XTT ; result: 0.0002 µM
CN(C)C1(c2nc(C(=O)NCc3ccc(F)cc3)c(O)c(=O)[nH]2)CCCCC1 ; strain or isolate: IIIB ; cells: MT-4 ; conditions: 10% FBS ; read-out: EC50 ; read by: p24 ; result: <0.12 µM
CCCOc1ccc(Cc2cc(C3CCN(C[C@H]4CN([C@@H](C(=O)O)C(C)C)C[C@@H]4c4cccc(F)c4)CC3)n(CC)n2)cc1 ; strain or isolate: BaL ; cells: HeLa ; read-out: EC50 ; read by: β-galactosidase ; result: <0.0037 µM
CN(C)C1(c2nc(C(=O)NCc3ccc(F)cc3)c(O)c(=O)[nH]2)CCCC1 ; strain or isolate: IIIB ; cells: MT-4 ; conditions: 50% human serum ; read-out: EC50 ; read by: p24 ; result: <1 µM
CCn1nc(Cc2ccc(C#N)cc2)cc1C1CCN(C[C@H]2CN([C@@H](C(=O)O)C(C)(C)C)C[C@@H]2c2cccc(F)c2)CC1 ; strain or isolate: BaL ; cells: HeLa ; read-out: EC90 ; read by: β-galactosidase ; result: <0.00014 µM
O=C(NCc1ccc(F)cc1)c1nc(C2CCCCN2)[nH]c(=O)c1O ; strain or isolate: IIIB ; cells: MT-4 ; conditions: 10% FBS ; read-out: EC50 ; read by: p24 ; result: <1.46 µM
N#Cc1ccc(Nc2nc(Oc3ccc(-c4ccc(C#N)cc4)cc3[N+](=O)[O-])c3sccc3n2)cc1 ; strain or isolate: IIIB ; cells: MT-4 ; mutations: K103N ; read-out: EC50 ; read by: MTT ; result: 0.0055 µM
Nc1ccn([C@H]2CC[C@@H](CO)O2)c(=O)n1 ; strain or isolate: RF ; cells: C8166 ; read-out: EC50 ; read by: RT activity ; result: 0.03 µM
O=C1N(Cc2ccc(CO)cc2)[C@H](Cc2ccccc2)[C@H](O)[C@@H](O)[C@@H](Cc2ccccc2)N1Cc1ccc(CO)cc1 ; strain or isolate: A012B pre ; cells: PBMC ; read-out: EC50 ; read by: p24 ; result: 0.018 µM
CC(C)CNc1nc(N)nc2c1ncn2CCOCP(=O)(O)O ; strain or isolate: IIIB ; cells: MT-4 ; read-out: EC50 ; read by: cytopathic effect / MTT ; result: >0.16 µg/mL
CC(C)[C@H](NC(=O)c1ccc2ccccc2n1)C(=O)N[C@@H](Cc1ccccc1)[C@H](O)CN1CC[C@@H](OCc2ccncc2)C[C@H]1C(=O)NC(C)(C)C ; strain or isolate: UHC-1 ; cells: PBMC ; read-out: EC50 ; read by: p24 / ELISA / antigen ; result: 0.004 µM
CC(=O)Oc1ccc(/C=C/C(=O)O[C@H](C(=O)O)[C@H](OC(=O)/C=C/c2ccc(OC(C)=O)c(OC(C)=O)c2)C(=O)O)cc1OC(C)=O ; strain or isolate: NL4-3 ; cells: MT-4 ; mutations: AMD2763-resistant ; read-out: EC50 ; read by: cytopathic effect / MTT ; result: >93 µM
CCCCCCCCCCCCSCC(COP(=O)([O-])OCC[N+](C)(C)C)OCCCCCCCCO ; strain or isolate: Clinical isolate G910-6 post-AZT ; cells: CEM + CEM-SS ; mutations: RT mutant at codon 215 ; read-out: EC50 ; read by: plaque count ; result: 1.2 µM
CCn1nc(Cc2ccccc2)cc1C1CCN(C[C@H]2CN([C@@H](C(=O)O)C3CCCCC3)C[C@@H]2c2cccc(F)c2)CC1 ; strain or isolate: BaL ; cells: HeLa ; read-out: EC50 ; read by: β-galactosidase ; result: <0.0004 µM
COC(=O)N[C@H](C(=O)N[C@@H](Cc1ccccc1)[C@@H](O)CN(Cc1ccc(-c2ccccn2)cc1)NC(=O)[C@@H](NC(=O)OC)C(C)(C)C)C(C)(C)C ; strain or isolate: IIIB ; cells: MT-2 ; mutations: 8374-P36 GS-8374-resistant ; read-out: EC50 ; read by: ATP ; result: 0.01 µM
CC[C@H](C)[C@H](C(=O)O)N1C[C@H](CN2CCC(c3cc(Cc4ccc(C)cc4)nn3CC)CC2)[C@@H](c2cccc(F)c2)C1 ; strain or isolate: BaL ; cells: HeLa ; read-out: EC90 ; read by: β-galactosidase ; result: <0.00014 µM
N#Cc1ccc(Nc2nc(Oc3ccc(-c4ccc(C#N)cc4)cc3F)c3sccc3n2)cc1 ; strain or isolate: IIIB ; cells: MT-4 ; read-out: EC50 ; read by: MTT ; result: 0.0475 µM
CC[C@H](C)[C@H](C(=O)O)N1C[C@H](CN2CCC(c3cc(Cc4ccc(OC)c(C#N)c4)nn3CC)CC2)[C@@H](c2cccc(F)c2)C1 ; strain or isolate: BaL ; cells: HeLa ; conditions: 50% human serum ; read-out: EC50 ; read by: β-galactosidase ; result: <0.033 µM
Cc1cn([C@H]2C[C@H](N=[N+]=[N-])[C@@H](CO)O2)c(=O)[nH]c1=O ; strain or isolate: HXB2-D294 (RT-P294S) ; cells: MT-4 ; mutations: RT-P294S ; read-out: EC50 ; read by: RT activity ; result: 0.013 µM
CCn1nc(Cc2ccc(F)c(F)c2)cc1C1CCN(C[C@H]2CN([C@@H](C(=O)O)C(C)C)C[C@@H]2c2cccc(F)c2)CC1 ; strain or isolate: BaL ; cells: HeLa ; conditions: 50% human serum ; read-out: EC90 ; read by: β-galactosidase ; result: 0.3 µM
CN(CCc1nc(C(=O)NCc2ccc(F)cc2)c(O)c(=O)[nH]1)Cc1ccccc1 ; strain or isolate: IIIB ; cells: MT-4 ; conditions: 10% FBS ; read-out: EC95 ; read by: p24 ; result: 10 µM
CCn1nc(Cc2ccc(S(=O)(=O)c3ccccc3)cc2)cc1C1CCN(C[C@H]2CN([C@@H](C(=O)O)C3CCCCC3)C[C@@H]2c2cccc(F)c2)CC1 ; strain or isolate: BaL ; cells: HeLa ; conditions: 50% human serum ; read-out: EC50 ; read by: β-galactosidase ; result: <0.033 µM
CN(C)C1(c2nc(C(=O)NCc3ccc(F)cc3)c(O)c(=O)[nH]2)CCC1 ; strain or isolate: IIIB ; cells: MT-4 ; conditions: 50% human serum ; read-out: EC50 ; read by: p24 ; result: <0.25 µM
Cc1cc(-c2ccc(C#N)cc2)cc(C)c1Oc1nc(Nc2ccc(C#N)cc2)nc2ccsc12 ; strain or isolate: IIIB ; cells: MT-4 ; mutations: Y188L ; read-out: EC50 ; read by: MTT ; result: 0.0507 µM
CCn1nc(Cc2ccc(OC(C)(C)C)cc2)cc1C1CCN(C[C@H]2CN([C@@H](C(=O)O)C(C)C)C[C@@H]2c2cccc(F)c2)CC1 ; strain or isolate: BaL ; cells: HeLa ; conditions: 50% human serum ; read-out: EC50 ; read by: β-galactosidase ; result: <0.1 µM
CCN(C)c1nc(N)nc2c1ncn2CCOCP(=O)(O)O ; strain or isolate: IIIB ; cells: CEM ; read-out: EC50 ; read by: cytopathic effect / MTT ; result: 0.55 µg/mL
c1cc(CN2CCCNCCNCCCNCC2)ccc1CN1CCCNCCNCCCNCC1 ; strain or isolate: SW30 CLADE C R5X4 ; cells: PBMC ; read-out: EC50 ; read by: p24 ; result: <0.5 µM
Nc1ccn([C@H]2CC[C@@H](CO)O2)c(=O)n1 ; strain or isolate: LAV-1 ; cells: U-937 ; read-out: EC50 ; read by: virus yield ; result: <0.001 µM
Cc1cn([C@H]2C[C@H](N=[N+]=[N-])[C@@H](CO)O2)c(=O)[nH]c1=O ; strain or isolate: 5346 WT ; cells: CEM-SS ; read-out: EC50 ; read by: plaque count ; result: 0.001 µM